Test results as given in publication PMC4909209, “Escherichia coli Protein Expression System for Acetylcholine Binding Proteins (AChBPs)” (2016).

Columns and labels:
[1] = biological target: de-tagged Ls-AChBP (Lymnaea stagnalis acetylcholine binding protein) (Lymnaea stagnalis) (UniProt P58154)
[2] = biological target: ubiquitin tagged Ac-AChBP (Aplysia californica acetylcholine binding protein) (Aplysia californica)

alpha-conotoxin PnIA (A10L) (peptide)
Ki [1]: 2000 nM
Ki [2]: 2.8 nM
